Compound potency records, mixed from different reports. Data source: NIAID ChemDB in PubChem.

Shared fields: whole-cell or culture tests; species: HIV-1; read-out: inhibition

Inhibition is in % at the dose shown (toxicity tests: loss of growth or viability).

SMILES,strain or isolate,mutations,cell line,method,setting,tested at,value
N=C1Sc2ccccc2C2=NCCCN12,92RW016,-,PBMC,β-galactosidase,-,0.54 µM,90%
O=C(NCCc1ccccc1)Nc1ncco1,-,-,MT-4,cytopathic effect / XTT,-,10 µg/mL,0%
C[C@@H]1CN(C(=O)c2ccccc2)CCN1C(=O)C(=O)c1c[nH]c2cccc(Br)c12,-,-,HeLa + HELA CD4+/CCR5,luciferase,-,10 µM,40%
O=C(NCCc1ccccc1)Nc1nc2c(Cl)cccc2s1,-,-,MT-4,RT activity,-,1 µg/mL,11%
Cc1ccc(-c2ccc3c(c2)C=C(C(=O)Nc2ccc(C[N+](C)(C)C4CCOCC4)cc2)CCC3)cc1,TB1 CLADE C,-,PBMC,p24,-,1 µM,97.6%
COC(=O)c1cccc2c(C(=O)C(=O)N3CCN(C(=O)c4ccccc4)C(C(C)C)C3)c[nH]c12,-,-,HeLa + HELA CD4+/CCR5,luciferase,-,10 µM,95%
C[C@H]1[C@H](O)[C@@H](C)/C=C/C=C/C=C/C=C/C=C/C=C/C=C/[C@H](O[C@@H]2O[C@H](C)[C@@H](O)[C@H](N)[C@@H]2O)C[C@@H]2O[C@](O)(C[C@@H](O)C[C@@H](O)CC[C@H](O)[C@@H](O)C[C@@H](O)CC(=O)O[C@H]1C)C[C@H](O)[C@H]2C(=O)O,92UG001 CLADE D X4/X5 (SI),-,PBMC,p24 / RT activity,-,3.8 µM,90%
O=C(NCCc1ccccc1)Nc1nc(C(F)(F)F)cs1,-,-,MT-4,RT activity,-,100 µg/mL,97%
O=C(C(=O)N1CCN(C(=O)c2ccccc2SCc2ccccc2)CC1)c1c[nH]c2cccc(Cl)c12,-,-,HeLa + HELA CD4+/CCR5,luciferase,-,10 µM,89%
Cc1cccc2sc(NC(=O)NCCc3ccccc3)nc12,-,-,MT-4,cytopathic effect / XTT,-,1 µg/mL,8%
CCCCCCCCCCCCCCCCOP(=O)(OC[C@H]1OC(O)[C@@H](O)[C@@H](O)[C@@H]1O)OC[C@H]1O[C@@H](n2cc(C)c(=O)[nH]c2=O)C[C@@H]1N=[N+]=[N-],LAV-Bru,-,PBL,RT activity,7 d,1 µM,47%
COC(=O)c1cccc2c(C(=O)C(=O)N3CCN(C(=O)c4ccccc4)C[C@@H]3C)c[nH]c12,-,-,HeLa + HELA CD4+/CCR5,luciferase,-,10 µM,>98%
COc1ccc(CCNC(=S)Nc2nccs2)cc1OC,-,-,MT-4,cytopathic effect / XTT,-,100 µg/mL,0%
CC(C)(C)OC(=O)Nc1cccc(C(=O)N2CCN(C(=O)C(=O)c3c[nH]c4cccc(F)c34)CC2)c1,-,-,HeLa + HELA CD4+/CCR5,luciferase,-,10 µM,98%
O=C(NCCc1ccccc1)Nc1ccn[nH]1,-,-,MT-4,cytopathic effect / XTT,-,100 µg/mL,0%
CCC1CN(C(=O)C(=O)c2c[nH]c3c(C(=O)OC)cccc23)CCN1C(=O)c1ccccc1,-,-,HeLa + HELA CD4+/CCR5,luciferase,-,10 µM,>98%
Cc1cn([C@H]2C[C@H](N=[N+]=[N-])[C@@H](COP(=O)(O)OCCO[C@H]3O[C@H](CO)[C@@H](O)[C@H](O)[C@@H]3O)O2)c(=O)[nH]c1=O,LAV-Bru,-,U-937,RT activity,11 d,1 µM,0%
C=C(C)[C@@H]1CC[C@]2(C(=O)NCCCCCCCC(=O)N[C@@H](CC(C)C)[C@@H](O)CC(=O)O)CC[C@]3(C)[C@H](CC[C@@H]4[C@@]5(C)CC[C@H](O)C(C)(C)[C@@H]5CC[C@]43C)[C@@H]12,LAI,GP41-K106R,HeLa P4 + HeLa,syncytia,-,10 µM,>99%
CC(C)[C@H](NC(=O)[C@H](CO)NC(=O)[C@@H](N)CSSCC(=O)O)C(=O)N[C@H](C(=O)N[C@@H](CSSCC(=O)O)C(=O)NCC(=O)O)[C@@H](C)O,BaL,-,PBMC(PHA STIM.) + PBMC,p24,-,0.132 µM,30%
CC1(C)[C@@H](O[C@H]2O[C@H](C(=O)O)[C@@H](O)[C@H](O)[C@H]2O[C@@H]2O[C@H](C(=O)O)[C@@H](O)[C@H](O)[C@H]2O)CC[C@]2(C)[C@H]3C(=O)C=C4[C@@H]5C[C@@](C)(C(=O)O)CC[C@]5(C)CC[C@@]4(C)[C@]3(C)CC[C@@H]12,IIIB,-,MOLT-4,antigen,3 d,1200 µM,36.2%
O=C(NCCc1ccccc1)Nc1nc2ccccc2s1,-,-,MT-4,cytopathic effect / XTT,-,1 µg/mL,53–63%
Nc1cccc(C(=O)N2CCN(C(=O)C(=O)c3c[nH]c4cccc(Cl)c34)CC2)c1,-,-,HeLa + HELA CD4+/CCR5,luciferase,-,10 µM,>98%
COC(=O)C(=O)c1csc(NC(=O)NCCc2ccccc2)n1,-,-,MT-4,cytopathic effect / XTT,-,100 µg/mL,0%
CC(=O)Oc1cccc(C(=O)N2CCN(C(=O)C(=O)c3c[nH]c4cccc(Cl)c34)CC2)c1,-,-,HeLa + HELA CD4+/CCR5,luciferase,-,10 µM,>98%
CC(C)[C@H](NC(=O)[C@H](CO)NC(=O)[C@H](CS)NC(=O)CCC(=O)NCCCOCCOCCCN)C(=O)N[C@H](C(=O)N[C@@H](CS)C(=O)NCC(=O)O)[C@@H](C)O,IIIB,-,PBMC(PHA STIM.) + PBMC,p24,-,1.32 µM,100%
CCCCCCCCCCCCCCCCOP(=O)(OCCO[C@@H]1O[C@H](CO)[C@@H](O)[C@H](O)[C@@H]1O)OC[C@H]1O[C@@H](n2cc(C)c(=O)[nH]c2=O)C[C@@H]1N=[N+]=[N-],LAV-Bru,-,CEM,RT activity,26 d,0.2 µM,0%
O=C(C(=O)N1CCN(C(=O)c2ccccc2)CC1CO)c1c[nH]c2cccc(F)c12,-,-,HeLa + HELA CD4+/CCR5,luciferase,-,10 µM,89%

For reference, 3 entries again:

SMILES	strain or isolate	mutations	cell line	method	setting	tested at	value
CC1(C)[C@@H](O[C@H]2O[C@H](C(=O)O)[C@@H](O)[C@H](O)[C@H]2O[C@@H]2O[C@H](C(=O)O)[C@@H](O)[C@H](O)[C@H]2O)CC[C@]2(C)[C@H]3C(=O)C=C4[C@@H]5C[C@@](C)(C(=O)O)CC[C@]5(C)CC[C@@]4(C)[C@]3(C)CC[C@@H]12	IIIB	-	MOLT-4	antigen	3 d	1200 µM	36.2%
O=C(NCCc1ccccc1)Nc1ncco1	-	-	MT-4	cytopathic effect / XTT	-	10 µg/mL	0%
O=C(NCCc1ccccc1)Nc1nc2c(Cl)cccc2s1	-	-	MT-4	RT activity	-	1 µg/mL	11%

Neighbouring rows are from separate reports. Two numbers with a dash give a range or band. An empty or dashed field is not shown.